From patent US8741576B2, “Heteroclitic analogs and related methods” (Epimunne Inc., priority 1999, dated 2014)

Key:
[1] = tested on: MAGE2.157-, HBV Pol.455- and HIV Pol.476-specific CTL lines; assay: IFNγ release (in situ capture ELISA) from murine CTL lines with peptide-pulsed .221A2.1 APC; assay type: cell-based, HLA-A2.1/K^bxs transgenic mice; details: dose titration
[2] = tested on: MAGE2.157-, HBV Pol.455- and HIV Pol.476-specific CTL lines; assay: Th2 cytokine (IL10/IL5) production by murine CTL lines, ELISA; assay type: cell-based, HLA-A2.1/K^bxs transgenic mice; details: for fold lower peptide concentration than wildtype inducing significant IL10 (50 pg/ml): dose titration; for Th2 cytokines: minimum peptide concentration required to induce 50 pg/ml of IL10 or IL15: murine CTL lines

SMILES | fold lower dose than wildtype peptide stimulating significant IFNγ (100 pg/well) [1] | fold lower peptide concentration than wildtype inducing significant IL10 (50 pg/ml) [2] [fold] | Th2 cytokines: minimum peptide concentration required to induce 50 pg/ml of IL10 or IL15 [2]
CC[C@H](C)[C@H](NC(=O)CNC(=O)[C@H](Cc1ccccc1)NC(=O)[C@H](Cc1ccccc1)NC(=O)[C@H](CC(C)C)NC(=O)[C@H](CCC(N)=O)NC(=O)[C@H](CC(C)C)NC(=O)[C@@H](N)Cc1ccc(O)cc1)C(=O)N[C@@H](CCC(=O)O)C(=O)N[C@H](C(=O)O)C(C)C [MAGE2.157 F5] | 100 fold | 10 | 10^−2 μg/ml
CC(C)C[C@H](NC(=O)[C@H](CCCNC(=N)N)NC(=O)[C@@H]1CCCN1C(=O)[C@@H](NC(=O)[C@H](Cc1ccc(O)cc1)NC(=O)[C@H](CCCNC(=N)N)NC(=O)[C@H](CO)NC(=O)[C@H](CC(C)C)NC(=O)CN)C(C)C)C(=O)O [HBV Pol.455 P7] | 100 fold | 100 | 10^−2 μg/ml
CC[C@H](C)[C@H](N)C(=O)N[C@@H](CC(C)C)C(=O)N[C@@H](Cc1c[nH]cn1)C(=O)N[C@@H](CCC(=O)O)C(=O)N1CCC[C@H]1C(=O)N[C@H](C(=O)N[C@@H](Cc1c[nH]cn1)C(=O)NCC(=O)N[C@H](C(=O)O)C(C)C)C(C)C [HIV Pol.476 H3] | – | – | 1 µg/mL
CC[C@H](C)[C@H](NC(=O)CNC(=O)[C@H](Cc1ccccc1)NC(=O)[C@@H](NC(=O)[C@H](CC(C)C)NC(=O)[C@H](CCC(N)=O)NC(=O)[C@H](CC(C)C)NC(=O)[C@@H](N)Cc1ccc(O)cc1)[C@@H](C)CC)C(=O)N[C@@H](CCC(=O)O)C(=O)N[C@H](C(=O)O)C(C)C [MAGE2.157 I5] | 10,000 fold | 100 | 10^−2 μg/ml
